For the series, the system named is TnpAREP Sm (TnpASm) (Stenotrophomonas maltophilia). The series can be described thus: EMSA. To be noted: 2 uM protein, no divalent metal, EMSA: 12.5 mM Tris pH 7.5, 120 mM NaCl, 1 mM DTT, 20 ug/ml BSA, 0.5 ug poly-dIdC, 7% glycerol, 0.02 uM labelled + 0.5 uM unlabelled oligonucleotide, recombinant protein, protein details: N-terminal Strep-tag, label: 5'-32P, folded or branched DNA. In general terms: A gel shift assay detects complexes by their altered migration in electrophoresis.

Construct, isoform or probe ends are uncertain for at least one entry.

“AGGTCCGGTAGTGCCGGCCGCTGGCCGGCAACCTCATTCAACTTCAGCAACCCAC [Sm3 (55nt) wt REPSm]”: the binding result is recorded as “binds”.
